Pooled drug test results. Numbers come from NIAID ChemDB, via PubChem.

All rows: enzyme or target tests; species: HIV-1; protein: Integrase; measure: IC50

Blank or dashed fields: not listed here.

{"smiles": "Nc1ccn(C2CC(OP(=O)(O)OCC3OC(n4cnc5c(N)ncnc54)CC3OP(=O)(O)OCC3OC(n4cnc5c(N)ncnc54)CC3O)C(COP(=O)(O)O)O2)c(=O)n1", "read by": "3′ processing", "result": "42 µM"}
{"smiles": "O=C(Nc1ccccc1)C(=S)Nn1c(O)c(/C=C2\\C=Nc3ccccc32)sc1=S", "read by": "strand transfer", "result": ">100 µM"}
{"smiles": "O=C(O)[C@H](Cc1ccccc1)NC(=O)C1(c2ccc(-c3ccccc3)cc2)CCN(Cc2ccc3ccccc3c2)CC1", "strain": "NL4-3", "read by": "strand transfer / fluorescence", "setting": "pseudotyped", "result": ">500 µM"}
{"smiles": "O=c1oc2ccccc2c(O)c1Cc1c(O)c2ccccc2oc1=O", "read by": "strand transfer", "result": ">100 µM"}
{"smiles": "Nc1ccn(C2CC(O)C(COP(=O)(O)OC3CC(n4ccc(N)nc4=O)OC3COP(=O)(O)O)O2)c(=O)n1", "read by": "strand transfer", "result": "12 µM"}
{"smiles": "CC(O)C(NC(=O)C(Cc1ccc(O)cc1)NC(=O)OCc1ccccc1)C(=O)O", "read by": "strand transfer", "result": "5.3–12.3 µM"}
{"smiles": "Oc1cc(O)c2c(c1)O[C@H](c1cc(O)c(O)c(O)c1)[C@@H](O)C2", "read by": "3′ processing", "result": "412 µM"}
{"smiles": "O=C(O)[C@H](CCCC(F)(F)F)NC(=O)C1(c2ccc3ccccc3c2)CCN(Cc2ccccc2)CC1", "strain": "NL4-3", "read by": "strand transfer / fluorescence", "setting": "pseudotyped", "result": "337.8 µM"}
{"smiles": "CN(C)C1C(=O)C(C(=O)NCNc2cccc(C(=O)O)c2C(=O)O)=C(O)C2(O)C(=O)C3=C(O)c4c(O)cccc4[C@](C)(O)[C@@H]3C[C@H]12", "strain": "RF", "read by": "strand transfer", "result": "1.1 µM"}
{"smiles": "Cc1[nH]cnc1C(=O)NNC1=Nc2ccc(Br)cc2C(c2ccccc2Cl)=NC1", "read by": "strand transfer", "result": "5 µM"}
{"smiles": "CCOc1ccc(C(C2=C(O)c3ccccc3C(=O)C2=O)C2=C(O)c3ccccc3C(=O)C2=O)cc1OC", "read by": "3′ processing", "result": ">100 µM"}
{"smiles": "CN(C)C1C(=O)C(C(=O)NCNCCC(=O)O)=C(O)C2(O)C(=O)C3=C(O)c4c(O)cccc4C(C)(O)C3CC12", "strain": "RF", "read by": "strand transfer", "result": "2.5 µM"}
{"smiles": "C/C(=N\\NC(=O)c1ccccc1O)c1cccc(/C(C)=N/NC(=O)c2ccccc2O)n1", "read by": "strand transfer", "result": "16.3–20 µM"}
{"smiles": "O=C(/C=C/c1ccc(O)c(O)c1)O[C@H]1CCCC[C@@H]1OC(=O)/C=C/c1ccc(O)c(O)c1", "read by": "3′ processing", "result": "24.8 µM"}
{"smiles": "Cc1c2cc[n+](C)cc2c(C)c2c1[nH]c1ccc(O)cc12", "read by": "strand transfer", "result": "10.3 µM"}
{"smiles": "CC(C)OC(=O)C(=O)CC(=O)c1cccn1Cc1ccc(F)cc1", "read by": "binding", "result": "0.59 µM"}
{"smiles": "O=c1oc2ccccc2c(O)c1C(c1ccc(Cl)cc1)c1c(O)c2ccccc2oc1=O", "read by": "strand transfer", "result": "15 µM"}
{"smiles": "CCCCOC(=O)C(=O)CC(=O)c1cccn1Cc1ccc(F)cc1", "read by": "strand transfer", "result": ">100 µM"}
{"smiles": "CC1(C)OC(=O)C2(C(=O)O1)[C@@H](c1ccco1)CC(=O)C[C@H]2c1ccco1", "read by": "strand transfer", "result": "17.6 µM"}
{"smiles": "O=C(NO)c1ccc(O)c(O)c1", "read by": "strand transfer", "result": "176–182.2 µM"}
{"smiles": "CC[C@H](C)/C=C(C)/C=C/C1=CC2=C(Cl)C(=O)[C@](C)(OC(C)=O)C(=O)C2=CO1", "result": "14.5 µg/mL"}
{"smiles": "COc1cc([C@@H]2c3cc4c(cc3[C@@H](O[C@@H]3O[C@@H]5CO[C@@H](c6cccs6)O[C@H]5[C@H](O)[C@H]3O)[C@H]3COC(=O)[C@H]23)OCO4)cc(OC)c1O", "read by": "3′ processing / substrate cleavage", "result": ">100 µM"}
{"smiles": "CCOC(=O)c1cnc(NCCCCCCNc2ncc(C(=O)OCC)c(=O)[nH]2)[nH]c1=O", "read by": "strand transfer", "result": "7.9–16.7 µM"}
{"smiles": "COc1cc(NC(C)CCCN)c2ncccc2c1", "read by": "3′ processing / substrate cleavage", "result": "15.3 µM"}
{"smiles": "CN1C(=O)C(=O)/C(=C(\\O)c2ccccc2)C1c1cccc(Cl)c1", "read by": "3′ processing", "result": ">100 µM"}
{"smiles": "O=C1C(=O)c2ccccc2C(O)=C1C(CCc1ccccc1)C1=C(O)c2ccccc2C(=O)C1=O", "read by": "strand transfer", "result": "72 µM"}
{"smiles": "COc1cc([C@H]2c3cc(O)c(OC)cc3C[C@H]3C(=O)OC[C@H]23)ccc1O", "strain": "HXB2", "read by": "strand transfer / radiometric", "result": ">35 µM"}
{"smiles": "Cc1cn(C2CC(O)C(COP(=O)(O)OC3CC(n4cnc5c(=O)[nH]c(N)nc54)OC3COP(=O)(O)O)O2)c(=O)[nH]c1=O", "read by": "3′ processing", "result": "22 µM"}
{"smiles": "COc1ccc2c(c1O)CNCC2c1ccc(O)c(O)c1", "strain": "HXB2", "read by": "strand transfer / radiometric", "result": "9 µM"}
{"smiles": "CN/N=C(/c1nc2ccc([N+](=O)[O-])cc2[nH]c1=O)C(O)c1ccc(C(O)/C(=N/NC)c2nc3ccc([N+](=O)[O-])cc3[nH]c2=O)cc1", "strain": "RF", "read by": "strand transfer", "result": ">160 µM"}
{"smiles": "O=C(c1ccc(O)cc1O)C1C(c2ccc(O)cc2)OC(c2ccc(O)cc2)C1C(=O)c1ccc(O)cc1O", "read by": "strand transfer", "result": "31.7–93.4 µM"}
{"smiles": "C[C@@H]1CCO[C@H]2Cn3cc(C(=O)NCc4ccc(F)cc4F)c(=O)c(O)c3CN12", "mutations": "G140S/Q148H", "result": "0.18 µM"}
{"smiles": "COc1cc(NS(C)(=O)=O)ccc1Nc1c2ccccc2nc2ccccc12", "read by": "3′ processing / substrate cleavage", "result": ">100 µM"}
{"smiles": "Nc1ccn([C@H]2C[C@H](O)[C@@H](COP(=O)(O)O[C@H]3C[C@H](n4cnc5c(N)ncnc54)O[C@@H]3COP(=O)(O)O)O2)c(=O)n1", "read by": "3′ processing", "result": "6 µM"}
{"smiles": "O=[N+]([O-])c1cc(S(=O)(=O)c2ccc(F)c([N+](=O)[O-])c2)ccc1F", "read by": "3′ processing", "result": "40 µM"}
{"smiles": "[N-]=[N+]=NCc1cc(CN=[N+]=[N-])cc(C(=O)CC(=O)C(=O)O)c1", "read by": "strand transfer", "result": "0.46 µM"}
{"smiles": "CC(O)C(NCNC(=O)C1=C(O)C2(O)C(=O)C3=C(O)c4c(O)cccc4C(C)(O)C3CC2C(N(C)C)C1=O)C(=O)O", "strain": "RF", "read by": "strand transfer", "result": "1 µM"}
{"smiles": "C[C@H](OC(=O)/C=C/c1ccc(O)c(O)c1)[C@H](C)OC(=O)/C=C/c1ccc(O)c(O)c1", "read by": "3′ processing", "result": "38.4 µM"}
{"smiles": "Cc1cn(C2CC(OP(=O)(O)OCC3OC(n4cnc5c(N)ncnc54)CC3O)C(COP(=O)(O)O)O2)c(=O)[nH]c1=O", "read by": "strand transfer", "result": "18 µM"}
{"smiles": "CCOC(=O)C(=O)C(=O)c1cccn1Cc1ccc(F)cc1", "read by": "binding", "result": "3.49 µM"}
{"smiles": "CC[C@@]1(O)C(=O)OCc2c1cc1n(c2=O)Cc2cc3c(N)cccc3nc2-1", "read by": "3′ processing / substrate cleavage", "result": ">100 µM"}
{"smiles": "Nc1nc2c(ncn2C2CC(O)C(COP(=O)(O)OC3CC(n4cnc5c(N)ncnc54)OC3COP(=O)(O)O)O2)c(=O)[nH]1", "read by": "3′ processing", "result": "15 µM"}
{"smiles": "O=c1oc2ccccc2c(O)c1C(c1ccc(C(c2c(O)c3ccccc3oc2=O)c2c(O)c3ccccc3oc2=O)cc1)c1c(O)c2ccccc2oc1=O", "read by": "strand transfer", "result": "0.4 µM"}
{"smiles": "O=C(O)[C@H](Cc1ccccc1)NC(=O)C1(c2ccc(F)cc2)CCN(Cc2ccc3ccccc3c2)CC1", "strain": "NL4-3", "read by": "strand transfer / fluorescence", "setting": "pseudotyped", "result": "125 µM"}
{"smiles": "O[C@H](c1cc(C(F)(F)F)nc2c(C(F)(F)F)cccc12)[C@@H]1CCCCN1", "read by": "strand transfer", "result": ">100 µM"}
{"smiles": "CN(C)S(=O)(=O)N(C)C1CCn2c1nc(C(=O)NCc1ccc(F)cc1)c(O)c2=O", "read by": "strand transfer", "result": "0.005 µM"}
{"smiles": "COc1cc(/C=C/c2ccc3c(C(=O)O)cc(C(=O)O)c(O)c3n2)cc(O)c1O", "read by": "strand transfer", "result": "0.007 µM"}
{"smiles": "O=C1OC[C@H]2[C@H](c3ccc(O)c(O)c3)c3cc(O)c(O)cc3C[C@H]12", "strain": "HXB2", "read by": "strand transfer", "result": "0.3 µM"}
{"smiles": "Cc1cnc(NCCCN(C)C)c2c1[nH]c1ccc3cc(O)ccc3c12", "read by": "strand transfer", "result": "31.4 µM"}

Again, the opening 4 rows:

smiles,strain,mutations,read by,setting,result
Nc1ccn(C2CC(OP(=O)(O)OCC3OC(n4cnc5c(N)ncnc54)CC3OP(=O)(O)OCC3OC(n4cnc5c(N)ncnc54)CC3O)C(COP(=O)(O)O)O2)c(=O)n1,-,-,3′ processing,-,42 µM
O=C(Nc1ccccc1)C(=S)Nn1c(O)c(/C=C2\C=Nc3ccccc32)sc1=S,-,-,strand transfer,-,>100 µM
O=C(O)[C@H](Cc1ccccc1)NC(=O)C1(c2ccc(-c3ccccc3)cc2)CCN(Cc2ccc3ccccc3c2)CC1,NL4-3,-,strand transfer / fluorescence,pseudotyped,>500 µM
O=c1oc2ccccc2c(O)c1Cc1c(O)c2ccccc2oc1=O,-,-,strand transfer,-,>100 µM

Lines come from different laboratories, so protocols vary. Two numbers with a dash give a range or band. ICn is the concentration giving n% inhibition.